Experimental data from US4436750A, “12'-Hydroxyverrucarin J and iso-satratoxin H” (dated 1984).

Assays:
[1] = tested on: KB cells; test: Zones of inhibition of KB cells in agar; conditions: 6.5 mm paper disks
[2] = tested on: L1210 cells; test: Inhibition of growth of L1210 cells in vitro; conditions: 0.067 μg/ml
[3] = tested on: P388 Lymphatic Leukemia; test: Antitumor activity against P388 Lymphatic Leukemia in Mice; conditions: QD × 5, values ≥125 considered active
[4] = tested on: human colon adenocarcinoma; test: Zones of inhibition of human colon adenocarcinoma (HCA) in agar; conditions: 6.5 mm paper disks
[5] = tested on: Kloeckera brevis; test: Antimicrobial activity, diameter of inhibition zone, Kloeckera brevis; conditions: 12.7 mm disks
[6] = tested on: Kloeckera africana; test: Antimicrobial activity, diameter of inhibition zone, Kloeckera africana; conditions: 12.7 mm disks
[7] = tested on: Rhodotorio glutinis; test: Antimicrobial activity, diameter of inhibition zone, Rhodotorio glutinis; conditions: 12.7 mm disks
[8] = tested on: Endomycopsis fibuliger; test: Antimicrobial activity, diameter of inhibition zone, Endomycopsis fibuliger; conditions: 12.7 mm disks
[9] = tested on: Saccharomyces fragilis; test: Antimicrobial activity, diameter of inhibition zone, Saccharomyces fragilis; conditions: 12.7 mm disks
[10] = tested on: Saccharomyces italicus; test: Antimicrobial activity, diameter of inhibition zone, Saccharomyces italicus; conditions: 12.7 mm disks
[11] = tested on: Pichia membranaefaciens; test: Antimicrobial activity, diameter of inhibition zone, Pichia membranaefaciens; conditions: 12.7 mm disks
[12] = tested on: Saccharomyces cerevisiae; test: Antimicrobial activity, diameter of inhibition zone, Saccharomyces cerevisiae; conditions: 12.7 mm disks
[13] = tested on: Saccharomycoides ludwigii; test: Antimicrobial activity, diameter of inhibition zone, Saccharomycoides ludwigii; conditions: 12.7 mm disks

| Substance | Inhibitory Zone ([1]; 10 μg/ml) [mm] | Inhibitory Zone ([1]; 33 μg/ml) [mm] | Inhibitory Zone ([1]; 100 μg/ml) [mm] | inhibition of the growth of L1210 cells in vitro [2] | Inhibitory Zone ([4]; 10 μg/ml) [mm] | Inhibitory Zone ([4]; 33 μg/ml) [mm] | Inhibitory Zone ([4]; 100 μg/ml) [mm] | Diameter of Inhibition Zone ([5]; 0.1 mg/ml) | Diameter of Inhibition Zone ([5]; 0.5 mg/ml) | Diameter of Inhibition Zone ([6]; 0.1 mg/ml) | Diameter of Inhibition Zone ([6]; 0.5 mg/ml) | Diameter of Inhibition Zone ([7]; 0.1 mg/ml) | Diameter of Inhibition Zone ([7]; 0.5 mg/ml) | Diameter of Inhibition Zone ([8]; 0.1 mg/ml) | Diameter of Inhibition Zone ([8]; 0.5 mg/ml) | Diameter of Inhibition Zone ([9]; 0.1 mg/ml) | Diameter of Inhibition Zone ([9]; 0.5 mg/ml) | Diameter of Inhibition Zone ([10]; 0.1 mg/ml) | Diameter of Inhibition Zone ([10]; 0.5 mg/ml) | Diameter of Inhibition Zone ([11]; 0.1 mg/ml) | further results |
| --- | --- | --- | --- | --- | --- | --- | --- | --- | --- | --- | --- | --- | --- | --- | --- | --- | --- | --- | --- | --- | --- |
| iso-satratoxin H | 40 | 44 | 44 | more than 95% | 12 | 17 | 21 | 0 | 18.0 | 0 | 20.0 | 20.0 | 25.0 | 26.0 | 29.0 | 25.0 | 29.0 | 0 | 17.0 | 0 | T/C percent MST ([3]; test - 1, 0.5 mg/kg): 138%; T/C percent MST ([3]; test - 1, 1.0 mg/kg): 152%; T/C percent MST ([3]; test - 1, 2.0 mg/kg): 171%; T/C percent MST ([3]; test - 2, 0.25 mg/kg): 125%; T/C percent MST ([3]; test - 2, 0.5 mg/kg): 144%; T/C percent MST ([3]; test - 2, 1.0 mg/kg): 177%; T/C percent MST ([3]; test - 2, 2.0 mg/kg): 198%; Diameter of Inhibition Zone ([11]; 0.5 mg/ml): 0; Diameter of Inhibition Zone ([12]; 0.1 mg/ml): 0; Diameter of Inhibition Zone ([12]; 0.5 mg/ml): 17.0; Diameter of Inhibition Zone ([13]; 0.1 mg/ml): 23.0; Diameter of Inhibition Zone ([13]; 0.5 mg/ml): 29.0 |
| 12'-hydroxyverrucarin J | 30 | 32 | 36 | more than 95% | 13 | 20 | 25 | 0 | 14.0 | 0 | 22.5 | 20.5 | 29.0 | 17.0 | 25.0 | 27.0 | 30.0 | 16.5 | 19.5 | 0 | Diameter of Inhibition Zone ([11]; 0.5 mg/ml): 13.5; Diameter of Inhibition Zone ([12]; 0.1 mg/ml): 13.5; Diameter of Inhibition Zone ([12]; 0.5 mg/ml): 20.0; Diameter of Inhibition Zone ([13]; 0.1 mg/ml): 25.0; Diameter of Inhibition Zone ([13]; 0.5 mg/ml): 31.0 |
